Molecules are shown by their SMILES. The entries are a selection whose mix differs from that of the whole data set. Calls of active or inactive are those of the source. Calls follow the shape of the dose curve; as a rule, active = well fitted inhibition curve with a large enough effect; inconclusive = small, poorly fitted or top-dose-only effect, or effect the other way; inactive = flat fitted curve, though single readings scatter.

Sequences of proteins named here, by UniProt entry; tags and fusion partners are left off. A change or cut given only in a name is not applied to a line headed by its entry.
UniProt O15648: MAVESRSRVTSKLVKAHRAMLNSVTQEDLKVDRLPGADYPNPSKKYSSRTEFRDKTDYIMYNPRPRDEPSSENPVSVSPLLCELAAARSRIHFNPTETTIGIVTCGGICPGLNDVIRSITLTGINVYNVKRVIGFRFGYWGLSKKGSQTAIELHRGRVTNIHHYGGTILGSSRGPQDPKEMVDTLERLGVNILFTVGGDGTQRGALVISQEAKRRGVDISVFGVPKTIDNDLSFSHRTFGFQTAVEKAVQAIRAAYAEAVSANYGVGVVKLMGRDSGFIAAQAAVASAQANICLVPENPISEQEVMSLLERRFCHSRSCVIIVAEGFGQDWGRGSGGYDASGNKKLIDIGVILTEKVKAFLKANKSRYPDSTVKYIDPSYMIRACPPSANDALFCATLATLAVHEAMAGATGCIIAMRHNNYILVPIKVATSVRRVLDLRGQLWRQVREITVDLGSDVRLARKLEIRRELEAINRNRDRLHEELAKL

This experiment concerns the target ATP-dependent 6-phosphofructokinase (Trypanosoma brucei brucei) (UniProt O15648). As to the kind of experiment: qHTS Assay to Find Inhibitors of T. brucei phosphofructokinase. Also: nearly all actives have a fitted effect of over 60% in size. Conditions: T. brucei PFK, ADP-Glo luminescence; series mostly up to 57.5 µM; activity, negative = inhibition: at the top concentration. From the text: NIH Molecular Libraries Probe Production Network [MLPCN] NIH Chemical Genomics Center [NCGC] Grant: 1 R03 MH092153-01 PI Name: Malcolm Walkinshaw, University of Edinburgh NCGC Assay Overview: Various species of the protozoan family Trypanosomatidae are responsible for a range of serious human diseases in tropical and subtropical areas of the world. […] Many of the disorders caused by trypanosomatids are fatal if left untreated, but most currently used drugs are inefficient and toxic. […] Oxidative metabolism involving the mitochondrial tricarboxylic acid cycle and oxidative phosphorylation are repressed in these parasites, and recent RNA interference (RNAi) experiments have shown that even partial depletion of certain individual glycolytic enzymes can lead to the death of cultured parasites. One such glycolytic enzyme, phosphofructokinase (PFK), catalyzes the formation of fructose-1,6-bisphosphate (F1,6BP) and ADP from fructose-6-phosphate (F6P) and ATP, and in many metabolic circumstances makes an important contribution to the control of flux through the glycolytic pathway. As a specific glycolytic target, PFK is particularly attractive as it catalyzes the first irreversible step in glycolysis, and structural and kinetic studies have shown very substantial and essential differences from corresponding host enzymes, allowing for the discovery of parasite-selective inhibitors. The goal of this screen is to find small-molecule inhibitors of T. brucei PFK using a biochemical assay that measures PFK activity as a function of ADP production. A luminescence-based assay for T. brucei PFK activity has been developed which uses luciferase to detect production of ADP. Traditional luciferase-based nucleotide detection reagents rely on ATP production as a direct substrate for the luciferase reaction; however, PFK catalyzes the transfer of a phosphate from ATP to F6P, resulting in the net depletion of ATP. To directly measure the ADP product of the PFK reaction, we used the ADP-Glo detection kit (Promega), which utilizes two separate reactions to 1) deplete all remaining uncatalyzed ATP and 2) convert all remaining ADP to ATP, which is then detected through a traditional luciferase-coupled reaction. Compounds were screened as a concentration-titration series that ranged from 57 uM to 0.7 nM.
NCGC Assay Protocol Summary: NCGC Assay Protocol Summary: Substrate buffer was dispensed into white, solid 1536-well plates at 3uL/well in 0.1M triethanolamine (TEA) buffer, pH 8.0, containing final concentrations of 5 mM MgCl2, 0.01% Tween20, 0.5 mM fructose-6-phosphate (F6P) and 0.1mM ATP. Then, 23 nL of compounds or DMSO were delivered to each well using a pin tool. One uL T. brucei PFK (0.1M TEA, 0.01% Tween20, 0.1% bovine serum albumin (BSA) and 1.25nM PFK, final concentrations) was then dispensed, and plates were incubated at room temperature for 45 min. The luminescent detection reagent, ADP-Glo (Promega), was then added in two steps: the first reagent, ADP-Glo (which converts remaining uncatalyzed ATP), was added at 2.5uL/well and incubated for ten minutes at room temperature, and the second component, Kinase Detection reagent (which converts ADP to ATP as a substrate for luciferase-based luminescence), was added immediately after at 5uL/well, followed by one final ten minute room temperature incubation. The plates were measured on a ViewLux plate reader for luminescent signal using a clear filter with a one second exposure. The %Activity was determined from the corrected luminescence values. As no specific T. brucei PFK inhibitors have been identified in the literature, 1x (1.25nM) and 0x PFK enzyme controls (untreated) were included to normalize %Activity of identified inhibitors; 0x enzyme values corresponded to 100%Activity (full inhibition), while 1x PFK enzyme values were used to normalize 0%Activity (no inhibition). Concentration-response curves were fitted to the signals arising from the resulting luminescence. […]
With `CCOP(=O)(Nc1ccc(C)cn1)OCC`, the “activity, negative = inhibition” value is inactive: 0.994%.
With `CCC1=CC2Cc3nc4ccc(Cl)cc4c(N)c3C(C1)C2` (stereo not given) the figure was inactive: -0.238%; with `O=P1(Nc2ccccn2)COc2ccccc2OC1`, inactive: -2.78%; with `CCOP(=O)(NC(=NC(C)c1ccccc1)NC(C)c1ccccc1)OCC` (stereo not given), inactive: -0.027%.
On to `Clc1n[nH]nc1-c1nn[nH][15n]1`, for which the “activity, negative = inhibition” value was inactive: 4.87%.
With `CC(C)(C)C(=O)NC(Sc1ncccn1)C(Cl)(Cl)Cl` (stereo not given) the figure was inactive: 2.26%; with `COc1ccccc1CNC(=O)COC(=O)C(O)(c1ccccc1)c1ccccc1`, inactive: -6.79%.
The value for `O=[As](O)(c1ccccc1Br)c1ccccc1Br` was inactive: -0.425%; that for `CN(C(=O)Cc1ccc(Cl)c(Cl)c1)[C@@H]1CCCC[C@H]1N1CCCC1` was inactive: -7.99%; that for `CC(C)/C=N\N=C(\N)N[N+](=O)[O-]` was inactive: 2.52%.
As to `O=P(Nc1nccs1)(c1ccccc1)c1ccccc1`, the “activity, negative = inhibition” value was inactive: -15.2%.
With `CC(C)C(=O)NC(Sc1ccccc1)C(Cl)(Cl)Cl` (stereo not given) the figure was inactive: -7.9%; with `c1nnnn1CCn1cnnn1`, inactive: -0.315%; with `CN(C)C1(CNC(=O)c2ccc(Cl)c(S(N)(=O)=O)c2)CCCCC1`, inactive: 0%.
As for `O=P(Nc1ccccn1)(c1ccc(Br)cc1)c1ccc(Br)cc1`, the “activity, negative = inhibition” value was inactive: -4.91%.
The value for `O=P(Nc1nc2ccccc2s1)(c1ccccc1)c1ccccc1` was inactive: -9.64%.
With `C[C@H]1OP(=O)(Oc2ccccc2)[C@H](O)[C@H](O)[C@H]1N=[N+]=[N-]` (stereo not given in full) the figure was inactive: 24.1%; with `O=[N+]([O-])c1ncn(CCn2cnc([N+](=O)[O-])n2)n1`, inactive: 1.74%; with `CC(=O)NC(SC(=S)N(C)C)C(Cl)(Cl)Cl` (stereo not given), inactive: -0.419%.
The value for `O=[N+]([O-])c1ccc(O)c(/C=N/Nc2ccc([N+](=O)[O-])cc2[N+](=O)[O-])c1` was inactive: 4.12%; that for `O=[As](O)(c1ccccc1)c1ccc(O)cc1` was inactive: 1.02%; that for `Nc1ccc([As](=O)(O)c2ccc([N+](=O)[O-])cc2)cc1` was inactive: -2.17%.
On to `C(Cc1nn[nH]n1)Cc1nn[nH]n1`, for which the “activity, negative = inhibition” value is inactive: 3.97%.
With `O=C(OC1CN2CCC1CC2)c1cccc(Cl)c1` (stereo not given), the “activity, negative = inhibition” value was inactive: 1.66%.
The value for `O=C(NC1CCS(=O)(=O)C1)NP(=S)(Oc1ccccc1)Oc1ccccc1` (stereo not given) was inactive: -3.09%.
Turning to `CCNC(=S)/N=C(\N)N[N+](=O)[O-]`, the “activity, negative = inhibition” value was inactive: -1.36%.
The value for `c1ccc(-c2nn[nH]n2)c(-c2nn[nH]n2)c1` was inactive: -24.7%; that for `CCOC(=O)NC(Sc1ccccc1)C(Cl)(Cl)Cl` (stereo not given) was inactive: -2.76%; that for `Cc1ccc(NP(=O)(Oc2cccc(C)c2)Oc2cccc(C)c2)nc1` was inactive: -9.86%.
The value for `COC(=O)c1cc2c(s1)N=C(c1ccccc1)N(C)P2(=O)N1CCOCC1` (stereo not given) was inactive: -3.94%; that for `Cc1ccc(OP(=O)(Nc2ccccn2)Oc2ccc(C)cc2)cc1` was inactive: 3.23%.
With `CC(=O)NC(SC(=S)N(CC(C)C)CC(C)C)C(Cl)(Cl)Cl` (stereo not given) the figure was inactive: -7.63%; with `O=C(OC1CN2CCC1CC2)c1ccccc1` (stereo not given), inactive: 1.8%; with `CCC(=O)N1C2C3N(C(=O)CC)C1C1N(C(=O)CC)C(C(N1C(=O)CC)N3C(=O)CC)N2C(=O)CC`, inactive: 8.05%.
For the molecule `Cc1ccccc1OP(=O)(Nc1ccccn1)Oc1ccccc1C`, the “activity, negative = inhibition” value is inactive: -3.63%.
With `CC(NC(=O)COC(=O)C(O)(c1ccccc1)c1ccccc1)c1ccccc1` (stereo not given) the figure was inactive: 0%; with `CN(C)C(=O)Oc1noc2ccccc12`, inactive: -3.75%; with `O=c1c2cc([N+](=O)[O-])ccc2[nH]c2c([N+](=O)[O-])cc([N+](=O)[O-])cc12`, inactive: -2.98%.
As to `O=P1(Nc2nc3ccc(Cl)cc3s2)COc2ccccc2O1` (stereo not given), the “activity, negative = inhibition” value is inactive: 2.32%.
The value for `CCOc1ccc(C2=NCC(CBr)S2)cc1` (stereo not given) was inactive: 1.66%; that for `CC(C)(C)C(=O)NC(Sc1ccccc1)C(Cl)(Cl)Cl` (stereo not given) was inactive: -1.56%.
The value for `CC(=O)c1ccc(N2CC2c2ccncc2)cc1` (stereo not given) was inactive: 2.33%; that for `Cc1ccccc1CN(C)C(=O)COC(=O)C(O)(c1ccccc1)c1ccccc1` was inactive: -4.5%.
The value for `C[C@@H]1C=CCP(=O)(Oc2ccccc2)O1` (stereo not given in full) was inactive: 0.221%.
In the case of `C[C@H]1OP(=O)(Oc2ccccc2)C[C@@H]2O[C@@H]21` (stereo not given in full), the “activity, negative = inhibition” value was inactive: 19.1%.
The value for `CC(=O)Nc1ccc([As](=O)(O)O)c(O)c1` was inactive: -3.1%; that for `CC(=O)Nc1ccc(Oc2c([N+](=O)[O-])cc([N+](=O)[O-])cc2[N+](=O)[O-])cc1` was inactive: -9.7%; that for `NC(=O)c1cc([N+](=O)[O-])cc([N+](=O)[O-])c1N` was inactive: -5.12%.
The value for `Cc1ccc(N/C(=N/P(=O)(N2CCOCC2)N2CCOCC2)N2CCOCC2)cc1` was inactive: -12.5%.
With `COc1ccccc1OP(=O)(Nc1ccc(C)cn1)Oc1ccccc1OC` the figure was inactive: 3.53%; with `Cc1ccc(OP(=O)(Nc2nccs2)Oc2ccc(C)cc2)cc1`, inactive: 3.67%.
In the case of `Clc1ccc(Cl)c(NC2=NCC(CBr)S2)c1` (stereo not given), the “activity, negative = inhibition” value is inactive: -0.549%.
The value for `CN1CCCC(OC(=O)C(c2ccccc2)c2ccccc2)C1` (stereo not given) was inactive: -1.89%; that for `CC(C)CC(=O)NC(Sc1ccc(Cl)cc1)C(Cl)(Cl)Cl` (stereo not given) was inactive: -0.406%.
As to `Nc1cc(N)c2nonc2c1[N+](=O)[O-]`, the “activity, negative = inhibition” value is inactive: -3.36%.
With `Oc1ccccc1CNc1ccccn1` the figure was inactive: 1.66%.
The value for `Cc1c2non([O-])c-2c(C)[n+](=O)[n+]1[O-]` was inactive: -3.55%.
The value for `O=C(NC(Sc1ccncn1)C(Cl)(Cl)Cl)c1ccccc1` (stereo not given) was inactive: -1.94%; that for `O=C(O)c1ccccc1[As](=O)(O)O` was inactive: -6.57%; that for `CC(=O)Nc1ccc([As](=O)(O)O)cc1` was inactive: -0.938%.

(Values after PubChem BioAssay AID485367 (National Center for Advancing Translational Sciences (NCATS), 2010).)
